Experiment: Fluorescence emission spectra without and with saturating ligand (wavelength shift, ΔIstd, ΔRmax)
Conditions: for λmax,apo (nm) / λmax,sat (nm): emission maximum; for λmax,apo (nm): absence of ligand; for λmax,sat (nm): saturating ligand (ligand column); for ΔIstd: standard intensity change; for ΔIstd / ΔRmax: unbound vs ligand-saturated; for ΔRmax: standard ratiometric change
How it was run: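 Emission spectra of bPBP–fluorophore conjugates (50–1000 nM protein, 25 °C, stirred) recorded without and with saturating ligand, using fluorophore-specific excitation. Wavelength shift, ΔIstd (intensity change at the mid-point wavelength) and ΔRmax (maximal ratiometric change over enumerated band pairs, 2 nm steps, 10 nm width) derived.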

| Molecule | λmax,apo (nm) | λmax,sat (nm) | ΔIstd | ΔRmax |
| --- | --- | --- | --- | --- |
| Glu/Asp BP A207C JPW4039 (conjugate, UniProt P37902 23-302, looked up, variant A207C, JPW4039 label) Glutamate/aspartate import …: DDAAPAAGSTLDKIAKNGVIVVGHRESSVPFSYYDNQQKVVGYSQDYSNAIVEAVKKKLNKPDLQVKLIPITSQNRIPLLQNGTFDFECGSTTNNVERQKQAAFSDTIFVVGTRLLTKKGGDIKDFANLKDKAVVVTSGTTSEVLLNKLNEEQKMNMRIISAKDHGDSFRTLESGRAVAFMMDDCLLAGERAKAKKPDNWEIVGKPQSQEAYGCMLRKDDPQFKKLMDDTIAQVQTSGEAEKWFDKWFKNPIPPKNLNMNFELSDEMKALFKEPNDKALN | 592 | 593 | 0.05 | 0.35 |
| Glu/Asp BP A207C JPW4042 (conjugate, UniProt P37902 23-302, looked up, variant A207C, JPW4042 dye label) Glutamate/aspartate import …: DDAAPAAGSTLDKIAKNGVIVVGHRESSVPFSYYDNQQKVVGYSQDYSNAIVEAVKKKLNKPDLQVKLIPITSQNRIPLLQNGTFDFECGSTTNNVERQKQAAFSDTIFVVGTRLLTKKGGDIKDFANLKDKAVVVTSGTTSEVLLNKLNEEQKMNMRIISAKDHGDSFRTLESGRAVAFMMDDCLLAGERAKAKKPDNWEIVGKPQSQEAYGCMLRKDDPQFKKLMDDTIAQVQTSGEAEKWFDKWFKNPIPPKNLNMNFELSDEMKALFKEPNDKALN | 635 | 634 | 0.20 | 1.37 |
| Glu/Asp BP A207C JPW4045 (conjugate, UniProt P37902 23-302, looked up, variant A207C, JPW4045 label) Glutamate/aspartate import …: DDAAPAAGSTLDKIAKNGVIVVGHRESSVPFSYYDNQQKVVGYSQDYSNAIVEAVKKKLNKPDLQVKLIPITSQNRIPLLQNGTFDFECGSTTNNVERQKQAAFSDTIFVVGTRLLTKKGGDIKDFANLKDKAVVVTSGTTSEVLLNKLNEEQKMNMRIISAKDHGDSFRTLESGRAVAFMMDDCLLAGERAKAKKPDNWEIVGKPQSQEAYGCMLRKDDPQFKKLMDDTIAQVQTSGEAEKWFDKWFKNPIPPKNLNMNFELSDEMKALFKEPNDKALN | 637 | 639 | 0.15 | 1.19 |
| Glu/Asp BP A207C Acrylodan (conjugate, UniProt P37902 23-302, looked up, variant A207C, acrylodan label) Glutamate/aspartate import …: DDAAPAAGSTLDKIAKNGVIVVGHRESSVPFSYYDNQQKVVGYSQDYSNAIVEAVKKKLNKPDLQVKLIPITSQNRIPLLQNGTFDFECGSTTNNVERQKQAAFSDTIFVVGTRLLTKKGGDIKDFANLKDKAVVVTSGTTSEVLLNKLNEEQKMNMRIISAKDHGDSFRTLESGRAVAFMMDDCLLAGERAKAKKPDNWEIVGKPQSQEAYGCMLRKDDPQFKKLMDDTIAQVQTSGEAEKWFDKWFKNPIPPKNLNMNFELSDEMKALFKEPNDKALN | 498 | 497 | 0.26 | 1.61 |
| Glu/Asp BP A207C Fluorescein (conjugate, UniProt P37902 23-302, looked up, variant A207C, fluorescein conjugate) Glutamate/aspartate import …: DDAAPAAGSTLDKIAKNGVIVVGHRESSVPFSYYDNQQKVVGYSQDYSNAIVEAVKKKLNKPDLQVKLIPITSQNRIPLLQNGTFDFECGSTTNNVERQKQAAFSDTIFVVGTRLLTKKGGDIKDFANLKDKAVVVTSGTTSEVLLNKLNEEQKMNMRIISAKDHGDSFRTLESGRAVAFMMDDCLLAGERAKAKKPDNWEIVGKPQSQEAYGCMLRKDDPQFKKLMDDTIAQVQTSGEAEKWFDKWFKNPIPPKNLNMNFELSDEMKALFKEPNDKALN | 520 | 520 | 0.12 | 0.25 |
